Experimental data: PubChem BioAssay AID1259414 (Drosophila RNAi Screening Center, 2018)
In all, the deposit lists about 24,000 reagents; this is an unselected part of those that have a named target and a result. In the full data, about 1,210 (5%) are marked active. 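Inactive calls also include excluded dsRNAs with several or no targets, genes unexpressed in JW18, and well A1, regardless of score.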 Reagents against one gene are numbered here.

Purpose: 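Host factors increasing or decreasing Wolbachia levels in cultured fly cells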 (primary screen)
Cells: Drosophila JW18 cells infected with Wolbachia
Reagent: long dsRNA against Drosophila genes, 0.25 µg dsRNA per well of a 384-well plate
Time to read-out: 5 days
Conditions: cells persistently infected with Wolbachia before knock-down; no added drug
Measurement: 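Automated imaging of bacterial rRNA staining divided by host cell count, reported as plate-normalised robust z-score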
Scale: Wolbachia per cell robust z: higher = more Wolbachia per host cell than the plate typical
Rule for the call: 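Active if absolute robust z reaches 1.5 in two or more of three replicates, leaving out multi- or no-target dsRNAs, genes unexpressed in JW18 and A1 wells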

{"target": "Rbcn-3A (GeneID 31557)", "reagent": 1, "Wolbachia per cell robust z, rep 1": -0.33, "Wolbachia per cell robust z, rep 2": -0.464, "Wolbachia per cell robust z, rep 3": 0.204, "activity call": "inactive"}
{"target": "Rbcn-3A (GeneID 31557)", "reagent": 2, "Wolbachia per cell robust z, rep 1": -0.457, "Wolbachia per cell robust z, rep 2": -0.737, "Wolbachia per cell robust z, rep 3": 0.153, "activity call": "inactive"}
{"target": "CG7094 (GeneID 35065)", "reagent": 1, "Wolbachia per cell robust z, rep 1": -0.581, "Wolbachia per cell robust z, rep 2": -0.452, "Wolbachia per cell robust z, rep 3": -0.653, "activity call": "inactive"}
{"target": "CG7094 (GeneID 35065)", "reagent": 2, "Wolbachia per cell robust z, rep 1": -0.00307, "Wolbachia per cell robust z, rep 2": -0.936, "Wolbachia per cell robust z, rep 3": -0.276, "activity call": "inactive"}
{"target": "CG7094 (GeneID 35065)", "reagent": 3, "Wolbachia per cell robust z, rep 1": 0.356, "Wolbachia per cell robust z, rep 2": 1.13, "Wolbachia per cell robust z, rep 3": 0.438, "activity call": "inactive"}
{"target": "PMCA (GeneID 43787)", "reagent": 1, "Wolbachia per cell robust z, rep 1": -2.81, "Wolbachia per cell robust z, rep 2": 1.66, "Wolbachia per cell robust z, rep 3": 0.791, "activity call": "inactive"}
{"target": "PMCA (GeneID 43787)", "reagent": 2, "Wolbachia per cell robust z, rep 1": -1.43, "Wolbachia per cell robust z, rep 2": 1.76, "Wolbachia per cell robust z, rep 3": 3.45, "activity call": "active"}
{"target": "PMCA (GeneID 43787)", "reagent": 3, "Wolbachia per cell robust z, rep 1": 0.366, "Wolbachia per cell robust z, rep 2": 2.29, "Wolbachia per cell robust z, rep 3": -0.495, "activity call": "inactive"}
{"target": "Pask (GeneID 37824)", "reagent": 1, "Wolbachia per cell robust z, rep 1": 0.954, "Wolbachia per cell robust z, rep 2": 0.311, "Wolbachia per cell robust z, rep 3": 0.459, "activity call": "inactive"}
{"target": "Pask (GeneID 37824)", "reagent": 2, "Wolbachia per cell robust z, rep 1": 0.882, "Wolbachia per cell robust z, rep 2": 1.31, "Wolbachia per cell robust z, rep 3": -0.907, "activity call": "inactive"}
{"target": "mdy (GeneID 44887)", "reagent": 1, "Wolbachia per cell robust z, rep 1": -0.334, "Wolbachia per cell robust z, rep 2": -1.74, "Wolbachia per cell robust z, rep 3": -1.53, "activity call": "active"}
{"target": "mdy (GeneID 44887)", "reagent": 2, "Wolbachia per cell robust z, rep 1": -8.62, "Wolbachia per cell robust z, rep 2": -0.129, "Wolbachia per cell robust z, rep 3": 1.19, "activity call": "inactive"}
{"target": "CG9948 (GeneID 38757)", "reagent": 1, "Wolbachia per cell robust z, rep 1": -0.725, "Wolbachia per cell robust z, rep 2": -2.75, "Wolbachia per cell robust z, rep 3": 0.727, "activity call": "inactive"}
{"target": "Klp3A (GeneID 31240)", "reagent": 1, "Wolbachia per cell robust z, rep 1": -0.308, "Wolbachia per cell robust z, rep 2": -0.426, "Wolbachia per cell robust z, rep 3": -0.24, "activity call": "inactive"}
{"target": "Klp3A (GeneID 31240)", "reagent": 2, "Wolbachia per cell robust z, rep 1": 0.155, "Wolbachia per cell robust z, rep 2": 0.526, "Wolbachia per cell robust z, rep 3": 0.153, "activity call": "inactive"}
{"target": "CG13605 (GeneID 42858)", "reagent": 1, "Wolbachia per cell robust z, rep 1": 0.186, "Wolbachia per cell robust z, rep 2": 0.153, "Wolbachia per cell robust z, rep 3": 0.694, "activity call": "inactive"}
{"target": "CG1314 (GeneID 33066)", "reagent": 1, "Wolbachia per cell robust z, rep 1": 1.63, "Wolbachia per cell robust z, rep 2": 0.992, "Wolbachia per cell robust z, rep 3": -1.1, "activity call": "inactive"}
{"target": "CG6701 (GeneID 36550)", "reagent": 1, "Wolbachia per cell robust z, rep 1": 0.124, "Wolbachia per cell robust z, rep 2": 1.01, "Wolbachia per cell robust z, rep 3": 1.43, "activity call": "inactive"}
{"target": "CG11911 (GeneID 33206)", "reagent": 1, "Wolbachia per cell robust z, rep 1": 0.541, "Wolbachia per cell robust z, rep 2": 0.292, "Wolbachia per cell robust z, rep 3": 1.02, "activity call": "inactive"}
{"target": "CG11911 (GeneID 33206)", "reagent": 2, "Wolbachia per cell robust z, rep 1": -0.125, "Wolbachia per cell robust z, rep 2": 1.1, "Wolbachia per cell robust z, rep 3": 0.415, "activity call": "inactive"}
{"target": "His3.3A (GeneID 33736)", "reagent": 1, "Wolbachia per cell robust z, rep 1": 1.66, "Wolbachia per cell robust z, rep 2": 4.9, "Wolbachia per cell robust z, rep 3": 3.19, "activity call": "active"}
{"target": "His3.3A (GeneID 33736)", "reagent": 2, "Wolbachia per cell robust z, rep 1": 0.203, "Wolbachia per cell robust z, rep 2": 0.343, "Wolbachia per cell robust z, rep 3": -1.04, "activity call": "inactive"}
{"target": "CG32751 (GeneID 318189)", "reagent": 1, "Wolbachia per cell robust z, rep 1": -0.105, "Wolbachia per cell robust z, rep 2": 0.556, "Wolbachia per cell robust z, rep 3": -0.498, "activity call": "inactive"}
{"target": "Cht11 (GeneID 31630)", "reagent": 1, "Wolbachia per cell robust z, rep 1": -4.74, "Wolbachia per cell robust z, rep 2": -2.02, "Wolbachia per cell robust z, rep 3": 0.34, "activity call": "active"}
{"target": "Cht11 (GeneID 31630)", "reagent": 2, "Wolbachia per cell robust z, rep 1": 0.406, "Wolbachia per cell robust z, rep 2": -1.19, "Wolbachia per cell robust z, rep 3": -0.507, "activity call": "inactive"}

Part of the list above, set out differently:
PMCA (GeneID 43787) #1: Wolbachia per cell robust z, rep 1 = -2.81; Wolbachia per cell robust z, rep 2 = 1.66; Wolbachia per cell robust z, rep 3 = 0.791; activity call = inactive
PMCA (GeneID 43787) #2: Wolbachia per cell robust z, rep 1 = -1.43; Wolbachia per cell robust z, rep 2 = 1.76; Wolbachia per cell robust z, rep 3 = 3.45; activity call = active
PMCA (GeneID 43787) #3: Wolbachia per cell robust z, rep 1 = 0.366; Wolbachia per cell robust z, rep 2 = 2.29; Wolbachia per cell robust z, rep 3 = -0.495; activity call = inactive
